A mixed list of measured activities; the numbers were collected in NIAID ChemDB.

Shared fields: enzyme or target tests; species: Toxoplasma gondii; protein: DHFR; measure: IC50

ICn is the concentration giving n% inhibition. Lines come from different laboratories, so protocols vary.

{"smiles": "Cl.Nc1nc(N)c2nc(CCc3ccccn3)cnc2n1", "result": "9.9 µM"}
{"smiles": "CC(C)Cc1nc2nc(N)nc(N)c2nc1CC(C)C", "result": "0.028 µM"}
{"smiles": "COc1ccc(OC)c(CCc2cnc3nc(N)nc(N)c3n2)c1", "result": "2.8 µM"}
{"smiles": "CCCCCCc1nc2nc(N)nc(N)c2nc1CCCCCC", "result": "46 µM"}
{"smiles": "Nc1nc(N)c2nc(CCc3cccs3)cnc2n1", "result": "1 µM"}
{"smiles": "Nc1ccc(S(=O)(=O)NC(=O)c2ccccc2)cc1", "result": "15 µM"}
{"smiles": "COc1ccc(OC)c(N(C)Cc2csc3nc(N)nc(N)c23)c1", "result": ">10 µM"}
{"smiles": "Cc1noc(NS(=O)(=O)c2ccc(N)cc2)c1C", "result": "17 µM"}
{"smiles": "COc1cccc2nc(N)nc(N)c12", "result": "0.48 µM"}
{"smiles": "Nc1nc(N)c2nc(CCc3ccc(C(F)(F)F)cc3)cnc2n1", "result": "1.5 µM"}
{"smiles": "Nc1ccc(S(=O)(=O)c2ccc(N)c(Cl)c2)cc1", "result": "0.81 µM"}
{"smiles": "Nc1nc(N)c2nc(CCc3ccc4ccccc4c3)cnc2n1", "result": "0.32 µM"}
{"smiles": "Cc1nnc(NS(=O)(=O)c2ccc(N)cc2)s1", "result": "7.9 µM"}
{"smiles": "COc1ccc(OC)c(N(C)Cc2cnc3nc(N)nc(N)c3c2C)c1", "result": "0.016 µM"}
{"smiles": "Nc1ccc(S(=O)(=O)Nc2nccs2)cc1", "result": "1.7 µM"}
{"smiles": "Nc1nc(N)c2nc(Cc3ccc4ccccc4c3)c(Cc3ccc4ccccc4c3)nc2n1", "result": ">31 µM"}
{"smiles": "Nc1ccc(S(=O)(=O)c2ccc(NCCO)cc2)cc1", "result": "0.35 µM"}
{"smiles": "COc1cc(OC)cc(N2C(N)=NC(N)=NC2(C)C)c1", "result": "16.4 µM"}
{"smiles": "Nc1nc(N)c2c3c(sc2n1)CCCCCCCCCC3", "result": "0.85 µM"}

Again, the opening 2 rows:

smiles	result
Cl.Nc1nc(N)c2nc(CCc3ccccn3)cnc2n1	9.9 µM
CC(C)Cc1nc2nc(N)nc(N)c2nc1CC(C)C	0.028 µM